Test system: YF17D

Substance: dextran sulfate
- SI (=TC50/EC50): >250

— patent publication US20240189343A1, “TREATMENT OF VIRUS INFECTIONS” (priority 2021, published 2024)
